The supplement of paper PMC9931576
Human monoclonal antibodies against the spike receptor-binding domain (heavy:light variable regions). IC50 against pseudoviruses bearing the spike of naturally observed variants; lower = stronger; >10 µg/ml means not reached at the top dose. No active / inactive call. The stated detection limit is 0.0005 µg/ml; values near or below 0.001 µg/ml lie at the floor of the assay.

B1: BD55-6629 (protein)
chain 1: QLQLQESGPGLVKPSETLSLTCSVSGGFISSTIYYWGWIRQPPGKRLEWIGSLDYSGDTYSSPSLKSRVTISVDTSKNQFSLNLRSVTAADTAVYYCARPRLISGYSNDWEGPTYYFDSWGQGILVTVSS
chain 2: SYVLTQPPSVSVAPGETATITCGGNNLGTTSVHWYQQKPGQAPVVVVFDNSGRPSGIPERLSGSNSGNTATLTISRVEDGDEADYYCQVWDKSSNVVIFGGGTKVSVL
B2: BD55-6632 (protein)
chain 1: QVQLVESGGGVVQPGSSLRLSCAASGFIFSNYDIHWVRQAPGKGLEWVAVISYDGSSKFYADSVKGRFAISRDNSKSTLQLSSLRPEDTAVYYCAKEQSYDTLTGLYYFDYWGQGTLVTVSS
chain 2: DIQMTQSPSSLSASVGDRVTITCRASQSIGNHLNWYQQKPGKAPKPLIYAASNLQSGVPSRFSGSGAGTHFTLTISSLQPEDFATYYCQQNYNTPQITFGPGTKVDV
B3: BD55-6636 (protein)
chain 1: EVQLLESGGGLGQPGGSLRLSCTASGFTFSSYSMNWVRQAPGRGLEWVSVIDRSGAGTFYADSVKGRFTISRDNSKNTVYLQLNSLTDEDTAIYYCAKDFGPTIAFDAFDVWGQGTIVTVSS
chain 2: DIQMTQSPSSLSASIGDRVTITCRASQSISTFLNWYQQKSGKAPKLLIYGSSNLQSGVPSRFSGSGSGTHFTLTISSLQPEDFATYYCQQSYTSPPPTFGGGTKVEIK
B4: BD55-6640 (protein)
chain 1: QVQLVQSGAEVKKPGASVKVSCKASGYTFASHDIHWVRQATGQGPEWMGWMNPNSGDTGFAHKFQGRVAMTRNTSINTAYMELSSLRSEDTAVYFCAIAFSSAHQPLLFVDYYYGLDVWGQGSTVTVSS
chain 2: DIQMTQSPSSLSASVGDRVTIICRASQSISNYLNWYQQKPGKAPKLLIYGASSLQSGVPSRFSGSGSGTDFTLTISNLQPEDFATYYCQQSYSTPPTFGGGTKVEIK
B5: BD55-6642 (protein)
chain 1: QVQLVQSGAEMKKPGASVKVSCRASGYTFTNYHIHWVRQVPGLGLEWMGIINPVAGVTGYAQKFEGRVTMTRDTSTSTVYMELNSLTSEDTAVYFCARDFAFSREYSGYDILDTRWFDPWGQGTLVTVSS
chain 2: DIVMTQSPDSLAVSLGERATINCKSSQSVLYSSNNKNYLAWYQQRPGQPPKVLIYWASTRQSGVPDRFSGSGSGTDFTLTISSLQAEDVAVYYCQQYYSSPLTFGGGTKVEIR
B6: BD55-6646 (protein)
chain 1: EVQLVESGGGLVQPGGSLRISCAVSGFTFRTYWMTWVRQAPGKGLEWVANINQDGTEEYYVDSVKGRFTISRDNAENSLHLQMNNLRAEDSAVYYCARGEKDVVVVGPIPMEYVQHWGQGTLVTVSS
chain 2: SYELTQAPSVSVSPGQTARITCSADAFPRQYGHWYQQKPGQAPVLVIYKDRERPSGIPERFSGSSSGTTVTLTISGVQAEDEADYYCQTADSSGTKMVFGGGTKLAVL

target: SARS-CoV-2 Omicron BA.1 spike pseudovirus; experiment: pseudovirus neutralization IC50; higher = weaker neutralization
Method: (§1)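 Single-round VSV luciferase pseudovirus mixed with antibody dilutions for 1 h and put on Huh-7 cells for about a day; IC50 from the dose curve.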

**Q.** For B1, which “pseudovirus neutralization IC50” value is on record?
**A.** > 10 µg/mL

**Q.** How did the “pseudovirus neutralization IC50” value turn out when B2 was run?
**A.** 4.76 µg/mL

**Q.** With B3 as the binder, how does the “pseudovirus neutralization IC50” value read?
**A.** > 10 µg/mL

**Q.** For B4, which “pseudovirus neutralization IC50” value is on record?
**A.** > 10 µg/mL

**Q.** Which “pseudovirus neutralization IC50” value does the source give for B5 here?
**A.** > 10 µg/mL

**Q.** B6 was tested. Which “pseudovirus neutralization IC50” value did it give?
**A.** > 10 µg/mL

target: SARS-CoV-2 Omicron BA.2 spike pseudovirus; experiment: as above
Method: as §1

**Q.** Which “pseudovirus neutralization IC50” value does the source give for B1 here?
**A.** > 10 µg/mL

**Q.** With B2 as the binder, how does the “pseudovirus neutralization IC50” value read?
**A.** 4.83 µg/mL

**Q.** With B3 as the binder, how does the “pseudovirus neutralization IC50” value read?
**A.** > 10 µg/mL

**Q.** Which “pseudovirus neutralization IC50” value does the source give for B4 here?
**A.** > 10 µg/mL

**Q.** For B5, which “pseudovirus neutralization IC50” value is on record?
**A.** > 10 µg/mL

**Q.** With B6 as the binder, how does the “pseudovirus neutralization IC50” value read?
**A.** > 10 µg/mL

target: SARS-CoV-2 Omicron BA.2.75 spike pseudovirus; experiment: as above
Method: as §1

**Q.** Which “pseudovirus neutralization IC50” value does the source give for B1 here?
**A.** > 10 µg/mL

**Q.** Which “pseudovirus neutralization IC50” value does the source give for B2 here?
**A.** 9.45 µg/mL

**Q.** Which “pseudovirus neutralization IC50” value does the source give for B3 here?
**A.** > 10 µg/mL

**Q.** B4 was tested. Which “pseudovirus neutralization IC50” value did it give?
**A.** > 10 µg/mL

**Q.** How did the “pseudovirus neutralization IC50” value turn out when B5 was run?
**A.** > 10 µg/mL

**Q.** B6 was tested. Which “pseudovirus neutralization IC50” value did it give?
**A.** > 10 µg/mL

target: SARS-CoV-2 Omicron BA.5 spike pseudovirus; experiment: as above
Method: as §1

**Q.** B1 was tested. Which “pseudovirus neutralization IC50” value did it give?
**A.** > 10 µg/mL

**Q.** For B2, which “pseudovirus neutralization IC50” value is on record?
**A.** 5.92 µg/mL

**Q.** How did the “pseudovirus neutralization IC50” value turn out when B3 was run?
**A.** > 10 µg/mL

**Q.** B4 was tested. Which “pseudovirus neutralization IC50” value did it give?
**A.** > 10 µg/mL

**Q.** How did the “pseudovirus neutralization IC50” value turn out when B5 was run?
**A.** > 10 µg/mL

**Q.** How did the “pseudovirus neutralization IC50” value turn out when B6 was run?
**A.** > 10 µg/mL

target: SARS-CoV-2 Omicron BQ.1.1 spike pseudovirus; experiment: as above
Method: as §1

**Q.** With B1 as the binder, how does the “pseudovirus neutralization IC50” value read?
**A.** > 10 µg/mL

**Q.** With B2 as the binder, how does the “pseudovirus neutralization IC50” value read?
**A.** 6.21 µg/mL

**Q.** For B3, which “pseudovirus neutralization IC50” value is on record?
**A.** > 10 µg/mL

**Q.** Which “pseudovirus neutralization IC50” value does the source give for B4 here?
**A.** > 10 µg/mL

**Q.** B5 was tested. Which “pseudovirus neutralization IC50” value did it give?
**A.** > 10 µg/mL

**Q.** How did the “pseudovirus neutralization IC50” value turn out when B6 was run?
**A.** > 10 µg/mL

target: SARS-CoV-2 Omicron XBB spike pseudovirus; experiment: as above
Method: as §1

**Q.** With B1 as the binder, how does the “pseudovirus neutralization IC50” value read?
**A.** > 10 µg/mL

**Q.** How did the “pseudovirus neutralization IC50” value turn out when B2 was run?
**A.** 4.15 µg/mL

**Q.** For B3, which “pseudovirus neutralization IC50” value is on record?
**A.** > 10 µg/mL

**Q.** B4 was tested. Which “pseudovirus neutralization IC50” value did it give?
**A.** > 10 µg/mL

**Q.** For B5, which “pseudovirus neutralization IC50” value is on record?
**A.** > 10 µg/mL

**Q.** B6 was tested. Which “pseudovirus neutralization IC50” value did it give?
**A.** > 10 µg/mL

target: SARS-CoV-2 early D614G spike pseudovirus; experiment: as above
Method: as §1

**Q.** Which “pseudovirus neutralization IC50” value does the source give for B1 here?
**A.** 9.4 µg/mL

**Q.** For B2, which “pseudovirus neutralization IC50” value is on record?
**A.** 0.778 µg/mL

**Q.** Which “pseudovirus neutralization IC50” value does the source give for B3 here?
**A.** > 10 µg/mL

**Q.** B4 was tested. Which “pseudovirus neutralization IC50” value did it give?
**A.** > 10 µg/mL

**Q.** B5 was tested. Which “pseudovirus neutralization IC50” value did it give?
**A.** 0.135 µg/mL

**Q.** How did the “pseudovirus neutralization IC50” value turn out when B6 was run?
**A.** > 10 µg/mL
